Measured values from several laboratories, pooled; numbers as filed in NIAID ChemDB.

Shared fields: growth or infection tests; organism: Mycobacterium tuberculosis

An empty or dashed field is not shown. ECn: concentration that inhibits the pathogen or its effect by n%. Inhibition is in % at the dose shown (toxicity tests: loss of growth or viability). Neighbouring rows are from separate reports.

compound	tested at	strain or isolate	endpoint	mutations	method	result
Cc1cc(-c2ccccc2Cl)c(C(=O)O)[nH]1	-	H37Rv	MIC	-	-	100 µg/mL
CCCCC(CC)CN1CN(CC(CC)CCCC)CC(C)(NCCNCc2ccc(C(F)(F)F)cc2)C1	-	-	MIC	-	-	50 µM
O=C1N(CC2CC2)c2ccccc2C12CCN(CC1CCCO1)CC2	-	H37Rv	MIC	-	resazurin	200 µM
CCCCN(C(C)=O)c1ccccc1	-	H37Rv	MIC	-	-	>100 µg/mL
O=c1cc(-c2ccccc2)oc2ccc(I)cc12	12.5 µg/mL	H37Rv	inhibition	-	-	27%
NC1=NC(c2cc(F)cc(F)c2)n2c(nc3ccccc32)N1	-	Clinical isolate	MIC	-	resazurin	16 µg/mL
CC1COc2c(N3CCN(C)CC3)c(F)cc3c(=O)c(C(=O)O)cn1c23	-	001-013 (drug-resistant)	MIC	-	-	1 µg/mL
COc1c(N2CCNC(C)C2)c(F)cc2c(=O)c(C(=O)O)cn(C3CC3)c12	-	Strain 448	MIC	-	-	0.125 µg/mL
C/C(=N\NC(=O)c1ccncc1)c1ccc(Cl)cc1Cl	-	H37Rv	MIC	-	-	0.1 µg/mL
NCC[C@H](O)C(=O)N[C@@H]1C[C@H](N)[C@@H](O[C@H]2O[C@H](CN)[C@@H](O)[C@H](O)[C@H]2O)[C@H](O)[C@H]1O[C@H]1O[C@H](CO)[C@@H](O)[C@H](N)[C@H]1O	-	MDR20	MIC	-	broth dilution / resazurin	1 µg/mL
CC(=O)Nc1ccc(OCC(=O)NN2C(=O)CSC2c2ccccc2)cc1	12.5 µg/mL	H37Rv	inhibition	-	-	0%
Nc1ccc2cc(S(=O)(=O)O)cc(S(=O)(=O)O)c2c1N	-	H37Rv	MIC	-	-	>100 µg/mL
COc1cc(C2SCC(=O)N2NC(=O)COc2ccc(NC(C)=O)cc2)ccc1O	12.5 µg/mL	H37Rv	inhibition	-	-	0%
C1=C(c2nc(-c3cccnc3)no2)c2ccccc2C12CCN(CC1CCCO1)CC2	-	136570	MIC	Streptomycin-resistant	resazurin	0.78 µM
CC(NC(=O)c1ccc2cc3ccccc3cc2c1)c1ccccc1	-	H37Rv	MIC	-	-	>100 µg/mL
O=C(NNCc1ccccc1F)c1ccncc1	-	Rifampicin-resistant	MIC	-	-	0.39 µg/mL
O=C(NCc1ccccc1)NCc1ccccc1	-	H37Rv	MIC	-	-	>100 µg/mL
O=C(N/N=C/c1ccccc1F)c1ccncc1	-	H37Rv (ethionamide-resistant)	MIC	-	-	>32 µg/mL
Clc1cc[c]([Sb]([c]2ccc(Cl)cc2)[c]2ccc(Cl)cc2)cc1	-	H37Rv	MIC	-	-	>100 µg/mL
CC(=O)NC[C@H]1CN(c2ccc(N3CCN(c4ccc([N+](=O)[O-])s4)CC3)c(F)c2)C(=O)O1	-	M-149	MIC	-	-	0.25 µg/mL
O=[N+]([O-])c1cn2c(n1)OC[C@@H](OCc1ccc(OC(F)(F)F)cc1)C2	-	H37Rv-T3-Fgd1 (PA-824-resistant)	MIC	-	-	0.8 µM
O=C(CC(c1ccccc1)C(C(=O)O)c1ccccc1)c1ccccc1	-	H37Rv	MIC	-	-	>100 µg/mL
CC(NNC(=O)c1ccncc1)c1ccc(Cl)c(Cl)c1	-	Erdman	MIC	-	-	3.13 µg/mL
Cc1cc(C)c(CC(=O)c2ccc[n+](C)c2)c(C)c1.[Cl-]	-	H37Rv	MIC	-	-	>100 µg/mL
Fc1ccc(CCNCCNCCc2ccc(Cl)cc2Cl)cc1	-	-	MIC	-	-	25 µM
CC(=O)Nc1ccc(OCC(=O)N/N=C/c2ccc(N(C)C)cc2)cc1	-	H37Rv	EC50	-	-	>12.5 µg/mL
COc1c(N2CCNC(C)C2)c(F)cc2c(=O)c(C(=O)O)cn(C3CC3)c12	-	18b	MIC	-	resazurin	0.5 µg/mL
CC(C)(C)c1ccc(CN2CCC3(CC2)C(=O)Nc2ccccc23)cc1	-	TB333	MIC	-	turbidity	1.6 µM
O=C(N/N=C/c1cccc(C(F)(F)F)c1)c1ccncc1	-	H37Rv (isoniazid-resistant)	MIC	-	-	>32 µg/mL
CO[C@H]1/C=C/O[C@@]2(C)Oc3c(C)c(O)c4c(O)c(c(/C=N/N5CCN(C)CC5)c(O)c4c3C2=O)NC(=O)/C(C)=C\C=C\[C@H](C)[C@H](O)[C@@H](C)[C@@H](O)[C@@H](C)[C@H](OC(C)=O)[C@@H]1C	-	8S	MIC	-	-	1 µg/mL
CC(NNC(=O)c1ccncc1)c1cccc(C(F)(F)F)c1	-	Erdman	MIC	-	-	3.13 µg/mL
C[C@H]1COc2c(N3CCN(C)CC3)c(F)cc3c(=O)c(C(=O)O)cn1c23	-	Strain 474	MIC	-	-	0.125 µg/mL
Cc1ccc(-c2noc(C3=CC4(CCN(CC5CCCO5)CC4)c4ccccc43)n2)cn1	-	ATCC 2794	MIC	Drug-resistant	resazurin	1.56 µM
CC(NNC(=O)c1ccncc1)c1ccc(F)cc1	-	Isoniazid-resistant	MIC	-	-	>50 µg/mL
CSc1ccc(NC(=O)c2cc3c(s2)CN(C2CC2)C3)cc1	-	18b	MIC	-	resazurin	8 µg/mL
NC(=O)Nc1ccccn1	-	H37Rv	MIC	-	-	>100 µg/mL
COc1ccc(/C=C/C(=O)c2cccc(F)c2O)cc1	-	H37Rv	MIC	-	-	>12.5 µg/mL
NC(=O)Nc1ccccc1O	-	H37Rv	MIC	-	-	>100 µg/mL
CC(C)CC(C)NCCNCCC(c1ccccc1)c1ccccc1	-	-	MIC	-	-	6.25 µM
COc1ccccc1/C=C/C(=O)c1ccccc1O	-	H37Rv	MIC	-	-	>12.5 µg/mL
CC[C@@H](CO)NCCN[C@@H](CC)CO	-	D-211	MIC	Drug-resistant	resazurin	1.2 µM
C[C@H]1COc2c(N3CCN(C)CC3)c(F)cc3c(=O)c(C(=O)O)cn1c23	-	9S	MIC	-	-	0.5 µg/mL
O=c1c(O)c(-c2ccccc2)oc2c(F)cccc12	-	H37Rv	MIC	-	-	>12.5 µg/mL
Cc1cccc(C2C(=S)NC(=O)C3=C2NCN(CCc2ccccc2)C3)n1	-	18b	MIC	-	resazurin	16 µg/mL
O=S(=O)(O)c1ccc2ncccc2c1	-	H37Rv	MIC	-	-	25 µg/mL
O=S(=O)(NCCC1=CCCCC1)c1ccc(Cl)s1	-	Clinical isolate	MIC	-	resazurin	16 µg/mL
OCC(O)CCl	-	H37Rv	MIC	-	-	>100 µg/mL
O=C(NNCc1ccccc1)c1ccncc1	-	Erdman	MIC	-	-	0.39 µg/mL
C[C@H](O)[C@@H](NSc1ccccc1[N+](=O)[O-])C(=O)NCCc1nc(-c2nc(C(=O)NCCCBr)cs2)cs1	-	H37Rv	MIC	-	BACTEC	≥12.8 µg/mL
CCOc1ccccc1	-	H37Rv	MIC	-	-	>100 µg/mL
CO[C@H]1/C=C/O[C@@]2(C)Oc3c(C)c(O)c4c(O)c(c(/C=N/N5CCN(C/C=C/c6ccccc6)CC5)c(O)c4c3C2=O)NC(=O)/C(C)=C\C=C\[C@H](C)[C@H](O)[C@@H](C)[C@@H](O)[C@@H](C)[C@H](OC(C)=O)[C@@H]1C	-	MTB1 (INH-R)	MIC	-	-	0.03 µg/mL
Nc1cccc(Cl)c1	-	H37Rv	MIC	-	-	25 µg/mL
COc1cc(C2SCC(=O)N2NC(=O)COc2ccc(NC(C)=O)cc2)cc(OC)c1OC	12.5 µg/mL	H37Rv	inhibition	-	-	0%
CC(CNC1CCCCCCC1)N[C@H]1C[C@H]2C[C@@H]([C@@H]1C)C2(C)C	-	-	MIC	-	-	12.5 µM
CC(C)c1cc(C(C)C)c(S(=O)(=O)N2CCN(CCO)CC2)c(C(C)C)c1	-	18b	MIC	-	resazurin	16 µg/mL
Nc1cc(O)c(C(=O)O)cc1C(=O)O	-	H37Rv	MIC	-	-	>100 µg/mL
CO[C@H]1/C=C/O[C@@]2(C)Oc3c(C)c(O)c4c(O)c(c(/C=N/N5CCN(C6CCCC6)CC5)c(O)c4c3C2=O)NC(=O)/C(C)=C\C=C\[C@H](C)[C@H](O)[C@@H](C)[C@@H](O)[C@@H](C)[C@H](OC(C)=O)[C@@H]1C	-	1025	MIC	-	-	0.08 µg/mL
O=S(=O)(NCCO)c1ccc(Br)cc1	-	H37Rv	MIC	-	-	25 µg/mL
CC1COc2c(N3CCN(C)CC3)c(F)cc3c(=O)c(C(=O)O)cn1c23	-	D-211	MIC	Drug-resistant	resazurin	0.14 µM
O=C(NCO)c1ccccc1	-	H37Rv	MIC	-	-	100 µg/mL
C/C(=N\NC(=O)c1ccncc1)c1ccc(F)cc1	-	Ethionamide-resistant	MIC	-	-	>1.6 µg/mL
CCCCN(CCCC)Cc1cc(CN(CCCC)CCCC)c(O)c(CN(CCCC)CCCC)c1	-	H37Rv	MIC	-	-	>100 µg/mL
COc1cc(OC)c2c(=O)cc(-c3ccc(O)cc3)oc2c1	-	H37Rv	MIC	-	-	>12.5 µg/mL
Nc1ccc(OCC(O)CO)cc1	-	H37Rv	MIC	-	-	100 µg/mL
NNC(=O)c1ccncc1	-	PR492	MIC	-	-	0.31 µg/mL
CCCCCC1(C)Cn2cc([N+](=O)[O-])nc2O1	-	H37Rv	MIC	-	-	0.1 µM
Cc1c(C)c2c(c(C)c1OC(=O)CCC(=O)O)CC[C@@](C)(CCC[C@H](C)CCC[C@H](C)CCCC(C)C)O2	-	H37Rv	MIC	-	-	>100 µg/mL

The last 6 rows once more:

compound	tested at	strain or isolate	endpoint	mutations	method	result
CCCCN(CCCC)Cc1cc(CN(CCCC)CCCC)c(O)c(CN(CCCC)CCCC)c1	-	H37Rv	MIC	-	-	>100 µg/mL
COc1cc(OC)c2c(=O)cc(-c3ccc(O)cc3)oc2c1	-	H37Rv	MIC	-	-	>12.5 µg/mL
Nc1ccc(OCC(O)CO)cc1	-	H37Rv	MIC	-	-	100 µg/mL
NNC(=O)c1ccncc1	-	PR492	MIC	-	-	0.31 µg/mL
CCCCCC1(C)Cn2cc([N+](=O)[O-])nc2O1	-	H37Rv	MIC	-	-	0.1 µM
Cc1c(C)c2c(c(C)c1OC(=O)CCC(=O)O)CC[C@@](C)(CCC[C@H](C)CCC[C@H](C)CCCC(C)C)O2	-	H37Rv	MIC	-	-	>100 µg/mL